Compound potency records, mixed from different reports. Data source: NIAID ChemDB in PubChem.

Common to all: tests in culture; agent: Candida albicans; measure: Geometric mean MIC

Lines come from different laboratories, so protocols vary.

{"structure": "Clc1cc(Cl)c2c(c1)CCc1ccccc1C2n1ccnc1", "strain or isolate": "35 isolates", "result": "0.05 µg/mL"}
{"structure": "CCCCCOc1ccc(-c2cc(-c3ccc(C(=O)N[C@H]4C[C@@H](O)[C@@H](O)NC(=O)[C@@H]5[C@@H](O)[C@@H](C)CN5C(=O)[C@H]([C@H](O)CC(N)=O)NC(=O)[C@H]([C@H](O)[C@@H](O)c5ccc(O)c(OS(=O)(=O)O)c5)NC(=O)[C@@H]5C[C@@H](O)CN5C(=O)[C@H]([C@@H](C)O)NC4=O)cc3)no2)cc1", "strain or isolate": "12 isolates fluconazole-resistant", "result": "0.015 µg/mL"}
{"structure": "COc1ccc(C(Cc2ccc([N+](=O)[O-])cc2)n2ccnc2)cc1", "strain or isolate": "34 strains", "result": ">256 µg/mL"}
{"structure": "CCC(C)n1ncn(-c2ccc(N3CCN(c4ccc(OC[C@H]5CO[C@](Cn6cncn6)(c6ccc(Cl)cc6Cl)O5)cc4)CC3)cc2)c1=O", "strain or isolate": "13 isolates fluconazole-resistant", "result": "1.62 µg/mL"}
{"structure": "COc1ccc(CNC(=O)c2ccccc2O)cc1", "strain or isolate": "ATCC 44859", "result": "431.8 µM"}
{"structure": "C[C@H]1[C@H](O)[C@@H](C)/C=C/C=C/C=C/C=C/C=C/C=C/C=C/[C@H](O[C@@H]2O[C@H](C)[C@@H](O)[C@H](N)[C@@H]2O)C[C@@H]2O[C@](O)(C[C@@H](O)C[C@@H](O)CC[C@H](O)[C@@H](O)C[C@@H](O)CC(=O)O[C@H]1C)C[C@H](O)[C@H]2C(=O)O", "strain or isolate": "10 strains (fluconazole-resistant)", "result": "0.11 µg/mL"}
{"structure": "N=C(N)c1ccc2nc(-c3ccc(-c4nc5ccc(C(=N)N)cc5[nH]4)[nH]3)[nH]c2c1", "strain or isolate": "21 strains", "result": "0.64 µg/mL"}
{"structure": "COc1ccc(C(Cc2ccc(F)cc2)n2ccnc2)cc1", "strain or isolate": "34 strains", "result": "61.39 µg/mL"}
{"structure": "CC[C@@H]([C@H](C)O)n1ncn(-c2ccc(N3CCN(c4ccc(OC[C@@H]5CO[C@@](Cn6cncn6)(c6ccc(F)cc6F)C5)cc4)CC3)cc2)c1=O", "strain or isolate": "55 strains (fluconazole-susceptible)", "result": "<0.003 µg/mL"}
{"structure": "COc1ccc(C(Cc2cccc([N+](=O)[O-])c2)n2ccnc2)cc1", "strain or isolate": "34 strains", "result": "256 µg/mL"}
{"structure": "CCC(C)n1ncn(-c2ccc(N3CCN(c4ccc(OC[C@H]5CO[C@](Cn6cncn6)(c6ccc(Cl)cc6Cl)O5)cc4)CC3)cc2)c1=O", "strain or isolate": "8 strains", "result": "0.071 µg/mL"}
{"structure": "COc1ccc(C(Cc2ccc(N)cc2)n2ccnc2)cc1", "strain or isolate": "34 strains", "result": "4.12 µg/mL"}
{"structure": "C[C@H]1[C@H](O)[C@@H](C)/C=C/C=C/C=C/C=C/C=C/C=C/C=C/[C@H](O[C@@H]2O[C@H](C)[C@@H](O)[C@H](N)[C@@H]2O)C[C@@H]2O[C@](O)(C[C@@H](O)C[C@@H](O)CC[C@H](O)[C@@H](O)C[C@@H](O)CC(=O)O[C@H]1C)C[C@H](O)[C@H]2C(=O)O", "strain or isolate": "12 isolates fluconazole-resistant", "result": "0.472 µg/mL"}
{"structure": "COc1ccc(C(Cc2cccc(F)c2)n2ccnc2)cc1", "strain or isolate": "34 strains", "result": "140.9 µg/mL"}
{"structure": "Cc1ccc(CNC(=O)c2ccccc2O)cc1", "strain or isolate": "ATCC 44859", "result": "412 µM"}

The last 2 rows once more:

| structure | strain or isolate | result |
|---|---|---|
| COc1ccc(C(Cc2cccc(F)c2)n2ccnc2)cc1 | 34 strains | 140.9 µg/mL |
| Cc1ccc(CNC(=O)c2ccccc2O)cc1 | ATCC 44859 | 412 µM |